# Target: ricin toxin A chain (RTA) (Ricinus communis, UniProt P02879)
smiles,measurement,setting,value
NNC(=O)c1cnc2c(=O)[nH]c(N)nc2n1,% inhibition at maximum concentration,"50% inhibition not reached, maximum concentration 500 μM",35%
same,IC50,"RTA inhibition, Table 1 summary of pterin-based inhibitors",> 500 µM

# Source: paper PMC3210460, “Structure-Based Design of Ricin Inhibitors” (2011)
